The target in this test is SARS CoV-1 spike on pseudotyped lentivirus (CoV-1 PVP) (SARS CoV-1) (UniProt P59594). The test is described as follows: cell-based or functional assay.

“Recombinant ACE2 protein (from UniProt Q9BYF1 18-740) (receptor)” gave an IC50, CoV-1 pseudovirus microneutralization assay, 293T/ACE2 target cells of 14.3 nM.
